Data source: PubChem BioAssay AID1224833 (University of Georgia, 2016)
Screen: 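Human genes whose knock-down alters rotavirus replication in monkey cells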 (primary screen). System: monkey MA104 kidney cells. Knock-down reagent: siRNA pool against human genes, 50 nM. Timing: 48 h knock-down before infection; read 24 h after infection. Treatment: infection with rotavirus strain RV3 two days after transfection; infectious dose for this stage not given. Measurement: 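z-score of rotavirus antigen signal per well, from a fluorescent immunoassay, relative to non-targeting control wells on the same plate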. Direction: z-score vs non-targeting control: higher = more rotavirus replication than with non-targeting control. Hit rule: In these data the active calls have z-score vs non-targeting control at about -1 or lower, or at about 1 or higher. Meaning of the calls: active = z-score beyond 1 either way; inactive = z-score within 1 of zero.
Shown is one part, drawn at random, of about 12,000 reagents. In the full data, about 5,600 (46%) were called active. 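Active calls cover z-scores past 1 in both directions, so they include lowered as well as raised rotavirus replication.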 Unmarked entries are inactive. No sequences are given here.

no.	Gene	z-score vs non-targeting control
1	PPIE (peptidylprolyl isomerase E)	0.803
2	DCN (decorin)	0.0256
3	CENPA (centromere protein A)	0.27
4	MRPS12 (mitochondrial ribosomal protein S12)	-0.119
5	TMEM234 (transmembrane protein 234)	0.63
6	SLC10A5	-1.05 (active)
7	TFE3 (transcription factor binding to IGHM enhancer 3)	-0.686
8	HNRNPUL2 (heterogeneous nuclear ribonucleoprotein U like 2)	-0.405
9	ELP3 (elongator acetyltransferase complex subunit 3)	-1.3 (active)
10	TLR1 (toll like receptor 1)	0.621
11	HEMK1	-0.654
12	LRRC17 (leucine rich repeat containing 17)	-0.804
13	SLC10A2	-1.32 (active)
14	TRMT1L (tRNA methyltransferase 1L)	-1.54 (active)
15	TTC7A (tetratricopeptide repeat domain 7A)	1.54 (active)
16	C19orf73 (chromosome 19 open reading frame 73)	0.956
17	OR4C16 (olfactory receptor family 4 subfamily C member 16)	-0.43
18	SERPINB11 (serpin family B member 11)	1.35 (active)
19	CORIN (corin, serine peptidase)	0.64
20	OR5H6 (olfactory receptor family 5 subfamily H member 6)	0.113
21	PRL (prolactin)	-1.7 (active)
22	OR8J1 (olfactory receptor family 8 subfamily J member 1)	-0.914
23	ARHGEF37 (Rho guanine nucleotide exchange factor 37)	-0.636
24	MIDN (midnolin)	1.22 (active)
25	RRP7A (ribosomal RNA processing 7 homolog A)	-0.934
26	SPEF2 (sperm flagellar and cilia associated 2)	0.46
27	IFITM3 (interferon induced transmembrane protein 3)	0.119
28	HMGN3 (high mobility group nucleosomal binding domain 3)	1.41 (active)
29	EIF4B (eukaryotic translation initiation factor 4B)	0.566
30	SYCP1 (synaptonemal complex protein 1)	-1.01 (active)
31	TMPRSS6 (transmembrane serine protease 6)	-4.32 (active)
32	ACRV1 (acrosomal vesicle protein 1)	-1.1 (active)
33	COA1 (cytochrome c oxidase assembly factor 1)	1.93 (active)
34	GUCD1 (guanylyl cyclase domain containing 1)	-1.35 (active)
35	CA8 (carbonic anhydrase 8 (inactive))	-1.04 (active)
36	GOLIM4 (golgi integral membrane protein 4)	0.738
37	CFAP36 (cilia and flagella associated protein 36)	2.4 (active)
38	METTL27 (methyltransferase like 27)	0.988
39	CST3 (cystatin C)	1.3 (active)
40	ACACB (acetyl-CoA carboxylase beta)	0.932
41	LSAMP (limbic system associated membrane protein)	0.342
42	KRTAP9-2 (keratin associated protein 9-2)	-0.754
43	PIGB (phosphatidylinositol glycan anchor biosynthesis class B)	-1.35 (active)
44	CD2 (CD2 molecule)	-1.65 (active)
45	CASR (calcium sensing receptor)	2.21 (active)
46	SSRP1 (structure specific recognition protein 1)	-1.29 (active)
47	WNT7A (Wnt family member 7A)	-1.15 (active)
48	TOM1L1 (target of myb1 like 1 membrane trafficking protein)	0.222
49	ITGB1BP2 (integrin subunit beta 1 binding protein 2)	1.18 (active)
50	ZNF132 (zinc finger protein 132)	2.12 (active)
51	ENDOV (endonuclease V)	1.93 (active)
52	TCEA2 (transcription elongation factor A2)	-2.32 (active)
53	LDHB (lactate dehydrogenase B)	-1.03 (active)
54	WDR49 (WD repeat domain 49)	-1.19 (active)
55	ZSCAN9 (zinc finger and SCAN domain containing 9)	-0.765
56	RGPD1 (RANBP2 like and GRIP domain containing 1)	-1.05 (active)
57	KRT24 (keratin 24)	1.06 (active)
58	ZDHHC4 (zDHHC palmitoyltransferase 4)	-0.534
59	ISLR (immunoglobulin superfamily containing leucine rich repeat)	0.332
60	DDT (D-dopachrome tautomerase)	0.539
61	MTHFD2	-1.22 (active)
62	GRIPAP1 (GRIP1 associated protein 1)	0.0852
63	SUSD6 (sushi domain containing 6)	0.932
64	KLF13 (KLF transcription factor 13)	-1.25 (active)
65	RHO (rhodopsin)	1.07 (active)
66	MAGEE2 (MAGE family member E2)	-0.108
67	ZNF517 (zinc finger protein 517)	-0.327
68	TPT1 (tumor protein, translationally-controlled 1)	-1.89 (active)
69	FAM222B (family with sequence similarity 222 member B)	-0.767
70	MTRF1 (mitochondrial translation release factor 1)	-1.56 (active)
71	SEC14L4 (SEC14 like lipid binding 4)	1.88 (active)
72	PFN4 (profilin family member 4)	-0.191
73	RAET1E (retinoic acid early transcript 1E)	-1.45 (active)
74	MYH6 (myosin heavy chain 6)	1.52 (active)
75	SNX15 (sorting nexin 15)	-1.03 (active)

Entries above whose target name begins with M or m (7):
Gene	z-score vs non-targeting control
MRPS12 (mitochondrial ribosomal protein S12)	-0.119
MIDN (midnolin)	1.22 (active)
METTL27 (methyltransferase like 27)	0.988
MTHFD2	-1.22 (active)
MAGEE2 (MAGE family member E2)	-0.108
MTRF1 (mitochondrial translation release factor 1)	-1.56 (active)
MYH6 (myosin heavy chain 6)	1.52 (active)
